Measured values from several laboratories, pooled; numbers as filed in NIAID ChemDB.

All rows: growth or infection tests; agent: HIV-1; cells: MT-4; endpoint: EC50

ECn is the concentration giving n% inhibition of infection, replication or growth. Neighbouring rows are from separate reports. Blank or dashed fields: not listed here.

smiles,strain or isolate,mutations,method,result
Cc1cc(C#CCCO)cc(C)c1Oc1ccnc(Nc2ccc(C#N)cc2)n1,IIIB,L100I,MTT,0.258 µM
COc1nc(N(C)C)nc(Cc2c(F)cccc2F)c1C,IIIB,Y181C,MTT,>67 µM
CCOP(=O)(Cc1cccc(Nc2cc(-c3cccc(N)c3)ncn2)c1)OCC,,,virus yield,0.332 µM
Cc1cc(C)c(S(=O)(=O)OCC2OC3OC4C(CO)OC(OC5C(CO)OC(OC6C(CO)OC(OC7C(CO)OC(OC8C(CO)OC(OC9C(C[n+]%10ccccc%10)OC(OC2C(O)C3O)C(O)C9O)C(O)C8O)C(O)C7O)C(O)C6O)C(O)C5O)C(O)C4O)c(C)c1,KK-1(AIDS),,cytopathic effect / trypan blue,<62.5 µg/mL
CCCP(=O)(O)Cc1cccc(Nc2cc(-c3ccccc3OCc3ccccc3)ncn2)c1,,,virus yield,0.142 µM
NC(=O)c1[nH]c2ccc(Cl)cc2c1S(=O)(=O)c1ccccc1,IIIB,,cytopathic effect / MTT,0.002 µM
CCCP(=O)(Cc1cccc(Nc2cc(-c3ccccc3OC)ncn2)c1)OCC,,,virus yield,0.296 µM
Cc1ccc(-c2cc(-c3ccc(Cl)cc3)nc(/N=C3\C(=O)N(CN(C)C)c4ccc(Br)cc43)n2)cc1,IIIB,,cytopathic effect / MTT,>13 µM
Cc1c(Cc2ccc3ccccc3c2)n(COCc2ccccc2)c(=O)[nH]c1=O,LAV,,,4.066 µM
CCc1c(Cc2cc(C)cc(C)c2)n(COCC#Cc2cc3ccccc3c3ccccc23)c(=O)[nH]c1=O,IIIB,K103N + Y181C,MTT,>80 µM
Cc1cnc(Nc2ccc(C#N)cc2)nc1C(Cl)c1ccc(Br)cc1,IIIB,K103N + Y181C,cytopathic effect,10.3 µM
Cc1ccccc1S(=O)(=O)c1c(C(=O)NCCO)[nH]c2ccc(Cl)cc12,IIIB,,cytopathic effect / MTT,0.031 µM
COc1nc(N(C)C)nc(C(=O)c2c(F)cccc2F)c1C,IIIB,,MTT,>20 µM
O=c1c2nc(-c3ccccn3)c(-c3ccccn3)nc2nc2scc(-c3ccccc3)n12,IIIB,,cytopathic effect / MTT / absorbance,>2.25 µM
O=C1/C(=C\c2ccc(SC3=CC=C3)cc2)N(CCc2cccs2)C(=S)N1CCc1cccs1,IIIB,,MTT,102 µg/mL
CC(C)CN(C[C@@H](O)[C@H](Cc1ccccc1)NC(=O)OC1COC2OCCC12)S(=O)(=O)c1ccc2c(c1)CC(=O)N2,F,PR-L10F M46I M71V I84V,cytopathic effect / MTT,0.19 µM
COC(=O)[C@H](C)NP(=O)(OC[C@@H]1C=C[C@H](n2cc(CCCNC(=O)C(F)(F)F)c(=O)[nH]c2=O)O1)Oc1ccccc1,IIIB,,,120 µM
C[C@H](CS)C(=O)N1CCC[C@@H]1c1nc2ccccc2s1,IIIB,,MTT,>15.8 µg/mL
Cc1ccc(-c2cc(-c3ccc(Cl)cc3)nc(/N=C3\C(=O)N(CN(C)C)c4ccccc43)n2)cc1,IIIB,,cytopathic effect / MTT,>10 µM
O=C(CSc1nc2nc(C3=CCC=C=N3)c(-c3ccccn3)nc2c(=O)[nH]1)c1ccccc1,IIIB,,cytopathic effect / MTT / absorbance,>41.88 µM
COc1cccc(OC)c1C(=O)c1nc(N(C)C)nc(OC)c1C,IIIB,K103N + Y181C,MTT,>8 µM
Cc1ccc(/C=C2\C(=O)Nc3ccc(S(=O)(=O)N(CC(C)C)C[C@@H](O)[C@H](Cc4ccccc4)NC(=O)O[C@H]4CO[C@H]5OCC[C@H]54)cc32)s1,F,PR-L10F M46I M71V I84V,cytopathic effect / MTT,0.088 µM
CC(C)c1c(C(=O)c2ccccc2)n(Cc2ccncc2)c(=O)[nH]c1=O,,,cytopathic effect / MTT,0.014 µg/mL
CCCCCCCCCCc1nccn(CCCCO)c1=O,IIIB,,,>100 µM
C[C@H](CS)C(=O)N1CCC[C@@H]1c1nc2c([N+](=O)[O-])cccc2[nH]1,IIIB,,MTT,>11.27 µg/mL
CN(C)c1nc(Cl)cc(C(C#N)c2c(F)cccc2F)n1,IIIB,Y181C,MTT,>80 µM
O=C(Cc1cn([C@H]2C=C[C@@H](CO)O2)c(=O)[nH]c1=O)NCCCCCCCCNC(=O)c1c2ccccc2nc2ccccc12,IIIB,,,>10 µM
O=C1/C(=C\c2ccc(F)cc2)N(CCc2cccs2)C(=S)N1CCc1cccs1,IIIB,,MTT,>93.1 µg/mL
C[C@H](CS)C(=O)N1CCC[C@@H]1c1nc2ncnc(N)c2[nH]1,IIIB,,MTT,>24.7 µg/mL
C=C(C)[C@@H]1CC[C@]2(COC(=O)c3cccnc3)CC[C@]3(C)[C@H](CC[C@@H]4[C@@]5(C)CC[C@H](OC(=O)c6cccnc6)C(C)(C)[C@@H]5CC[C@]43C)[C@@H]12,EVK,,p24,0.02 µg/mL
Cc1c(C(O)c2c(F)cccc2F)nc(N(C)C)[nH]c1=O,IIIB,K103N + Y181C,MTT,>50 µM
CC(C)CN(C[C@@H](O)[C@H](Cc1ccccc1)NC(=O)O[C@H]1CO[C@H]2OCC[C@H]21)S(=O)(=O)c1ccc2c(c1)/C(=C/c1ccc(-c3ccccn3)cc1)C(=O)N2,LAI,,cytopathic effect / MTT,0.023 µM
O=C1/C(=C\c2ccc([N+](=O)[O-])cc2)N(CCc2cccs2)C(=S)N1CCc1cccs1,IIIB,,MTT,>85.1 µg/mL
CCc1c(C(=O)c2cc(C)cc(CF)c2)n(Cc2ccncc2)c(=O)[nH]c1=O,,,cytopathic effect / MTT,0.003 µg/mL
CCOCn1c(Cc2ccccc2)c(C(C)C)c(=O)[nH]c1=O,NNRTI-resistant (RT K103N Y181C) A17,RT-K103N Y181C,cytopathic effect / MTT,>100 µM
Cc1ccc(-c2cc(-c3ccc(Cl)cc3)nc(/N=C3\C(=O)N(CN4CCOCC4)c4ccc(Br)cc43)n2)cc1,IIIB,,cytopathic effect / MTT,>2 µM
Cc1cc(C(Cl)c2ccc(C(C)(C)C)cc2)nc(Nc2ccc(C#N)cc2)n1,IIIB,,cytopathic effect,0.435 µM
CCc1c(Cc2cc(C)cc(C)c2)n(COCC2CC=CCC2)c(=O)[nH]c1=O,NNRTI-resistant (RT Y181C) N119,RT-Y181C,cytopathic effect / MTT,>100 µM
CCc1c(Cc2cc(C)cc(C)c2)n(COCC#Cc2ccc(CO[Si](c3ccccc3)(c3ccccc3)C(C)(C)C)cc2)c(=O)[nH]c1=O,IIIB,EFV-resistant (K103R V179D P225H),MTT,>100 µM
CN(C)c1ccc(/C=C2\C(=O)N(CCc3cccs3)C(=S)N2CCc2cccs2)cc1,IIIB,,MTT,>34.3 µg/mL
CSCSc1nc(Cc2c(F)cccc2F)c(C)c(=O)[nH]1,IIIB,,cytopathic effect / MTT,0.1 µM
CCCCCCCCCCc1nccn(C(CO)OC(CO)CO)c1=O,IIIB,,,>100 µM
S=c1[nH]c(=S)c2nc(-c3ccccn3)c(-c3ccccn3)nc2[nH]1,IIIB,,cytopathic effect / MTT / absorbance,>93.23 µM
CCc1c(C(=O)c2cc(F)cc(F)c2)n(Cc2ccccn2)c(=O)[nH]c1=O,,,cytopathic effect / MTT,0.1189 µg/mL
CCCc1c(Cc2ccccc2)n(COC/C=C/c2ccccc2)c(=O)[nH]c1=O,NNRTI-resistant (RT Y181C) N119,RT-Y181C,cytopathic effect / MTT,>100 µM
O=C(O)c1ccc2c(c1)C(=O)N(c1ccc(-c3cc(-c4ccc(N5C(=O)c6ccc(C(=O)O)cc6C5=O)cc4)nc(-c4ccccc4)n3)cc1)C2=O,,,cytopathic effect / propidium iodide,20 µM
Cc1ccc(Sc2c(C(=O)NCCO)[nH]c3ccc(Cl)cc23)c(C)c1,IIIB,,cytopathic effect / MTT,0.01 µM
NC1=NC(N)c2nc(-c3ccccn3)c(-c3ccccn3)nc2N1,IIIB,,cytopathic effect / MTT / absorbance,>3.23 µM
CCc1c(Cc2cccc3ccccc23)n(COCc2ccccc2)c(=O)[nH]c1=O,LAV,,,0.017 µM
CCCc1c(Cc2cc(C)cc(C)c2)n(COC/C=C/c2ccccc2)c(=O)[nH]c1=O,NNRTI-resistant (RT Y181C) N119,RT-Y181C,cytopathic effect / MTT,6 µM
O=C(NNCCO)c1[nH]c2ccc(Cl)cc2c1S(=O)(=O)c1ccccc1,,RT-Y181C,cytopathic effect / MTT,0.04 µM
O=C(Cc1cn([C@H]2C=C[C@@H](CO)O2)c(=O)[nH]c1=O)NCCCCCCCCCCCCNC(=O)c1c2ccccc2nc2ccccc12,IIIB,,,>10 µM
CO[C@H]1O[C@@H](n2ccc(=O)[nH]c2=O)C[C@@H]1N=[N+]=[N-],KMR100,,cytopathic effect / trypan blue,0.009 µM
CCc1c(Cc2cc(C)cc(C)c2)n(COCC#Cc2ccccc2)c(=O)[nH]c1=O,IIIB,WT,MTT,0.004 µM
NCCCc1cn([C@H]2C=C[C@@H](CO)O2)c(=O)[nH]c1=O,IIIB,,,>1000 µM
Cc1ccc(-c2cc(-c3ccc(Cl)cc3)nc(/N=C3\C(=O)Nc4ccccc43)n2)cc1,IIIB,,cytopathic effect / MTT,>9 µM
Cc1cccc(Sc2c(C(=O)NCCO)[nH]c3ccc(Cl)cc23)c1,IIIB,,cytopathic effect / MTT,0.08 µM
O=c1[nH]c(=O)c2nc(-c3ccccn3)c(-c3ccccn3)nc2[nH]1,IIIB,,cytopathic effect / MTT / absorbance,>103 µM
N#Cc1ccc(Nc2nccc(C(Br)c3ccccc3)n2)cc1,IIIB,K103N + Y181C,cytopathic effect,69 µM
CCc1c(Cc2ccc3ccccc3c2)n(COCc2ccccc2)c(=O)[nH]c1=O,LAV,,,1.449 µM
O=c1[nH]c(=O)n([C@H]2C=C[C@@H](CO)O2)cc1CCO,IIIB,,,>1 µM
CCc1c(Cc2cc(C)cc(C)c2)n(COC/C(C)=C/c2ccccc2)c(=O)[nH]c1=O,IIIB,,cytopathic effect / MTT,0.003 µM
Cc1cc(CF)cc(C(=O)c2c(C(C)C)c(=O)[nH]c(=O)n2Cc2ccncc2)c1,,,cytopathic effect / MTT,0.002 µg/mL
CCc1c(Cc2cc(C)cc(C)c2)n(COCC#Cc2ccccc2C(F)(F)F)c(=O)[nH]c1=O,IIIB,K103N + Y181C,MTT,15 µM
Cc1cc(/C=C2\C(=O)Nc3ccc(S(=O)(=O)N(CC(C)C)C[C@@H](O)[C@H](Cc4ccccc4)NC(=O)O[C@H]4CO[C@H]5OCC[C@H]54)cc32)cc(C)c1O,F,PR-L10F M46I M71V I84V,cytopathic effect / MTT,0.05 µM
Cc1ccc(-c2cc(-c3ccc(Cl)cc3)nc(/N=C3\C(=O)N(CN4CCOCC4)c4ccccc43)n2)cc1,IIIB,,cytopathic effect / MTT,>3 µM
Cc1cc(C)cc(S(=O)(=O)c2c(C(=O)NCCO)[nH]c3ccc(Cl)cc23)c1,,RT-Y181C,cytopathic effect / MTT,0.2 µM
CCc1c(C(=O)c2cc(C)cc(C)c2)n(Cc2ccc(OC)cc2)c(=O)[nH]c1=O,,,cytopathic effect / MTT,0.002 µg/mL
CCCP(=O)(Cc1cccc(Nc2cc(-c3ccccc3OCc3ccccc3)ncn2)c1)OCC,,,virus yield,0.143 µM
O=C1/C(=C\c2ccccc2)N(CCc2cccs2)C(=S)N1CCc1cccs1,IIIB,,MTT,>59.38 µg/mL
CCc1c(C(=O)c2cc(C)cc(C)c2)n(Cc2ccc([N+](=O)[O-])cc2)c(=O)[nH]c1=O,,,cytopathic effect / MTT,0.009 µg/mL
O=c1[nH]c(=S)[nH]c2nc(-c3ccccn3)c(-c3ccccn3)nc12,IIIB,,cytopathic effect / MTT / absorbance,>79.23 µM
Cc1cc(C)cc(C(=O)c2c(C(C)C)c(=O)[nH]c(=O)n2Cc2ccccc2)c1,,,cytopathic effect / MTT,0.004 µg/mL
Cc1[nH]c2ccccc2c1CC(=O)N[C@@H](Cc1ccccc1)C(=O)N(C)c1ccccc1,NL4-3,,entry / luminescence,0.42 µM
Cc1ccc(-c2cc(-c3ccc(Cl)cc3)nc(/N=C3\C(=O)Nc4ccc(Cl)cc43)n2)cc1,IIIB,,cytopathic effect / MTT,>8 µM
COC(=O)[C@H](C)NP(=O)(OC[C@@H]1C=C[C@H](n2cc(CC(=O)NCCCCCCNC(=O)C(F)(F)F)c(=O)[nH]c2=O)O1)Oc1ccccc1,IIIB,,,10 µM
Cc1ccc(S(=O)(=O)c2c(C(=O)NNCCO)[nH]c3ccc(Cl)cc23)cc1,,RT-Y181C,cytopathic effect / MTT,0.03 µM

The first 10 rows once more:

smiles	strain or isolate	mutations	method	result
Cc1cc(C#CCCO)cc(C)c1Oc1ccnc(Nc2ccc(C#N)cc2)n1	IIIB	L100I	MTT	0.258 µM
COc1nc(N(C)C)nc(Cc2c(F)cccc2F)c1C	IIIB	Y181C	MTT	>67 µM
CCOP(=O)(Cc1cccc(Nc2cc(-c3cccc(N)c3)ncn2)c1)OCC			virus yield	0.332 µM
Cc1cc(C)c(S(=O)(=O)OCC2OC3OC4C(CO)OC(OC5C(CO)OC(OC6C(CO)OC(OC7C(CO)OC(OC8C(CO)OC(OC9C(C[n+]%10ccccc%10)OC(OC2C(O)C3O)C(O)C9O)C(O)C8O)C(O)C7O)C(O)C6O)C(O)C5O)C(O)C4O)c(C)c1	KK-1(AIDS)		cytopathic effect / trypan blue	<62.5 µg/mL
CCCP(=O)(O)Cc1cccc(Nc2cc(-c3ccccc3OCc3ccccc3)ncn2)c1			virus yield	0.142 µM
NC(=O)c1[nH]c2ccc(Cl)cc2c1S(=O)(=O)c1ccccc1	IIIB		cytopathic effect / MTT	0.002 µM
CCCP(=O)(Cc1cccc(Nc2cc(-c3ccccc3OC)ncn2)c1)OCC			virus yield	0.296 µM
Cc1ccc(-c2cc(-c3ccc(Cl)cc3)nc(/N=C3\C(=O)N(CN(C)C)c4ccc(Br)cc43)n2)cc1	IIIB		cytopathic effect / MTT	>13 µM
Cc1c(Cc2ccc3ccccc3c2)n(COCc2ccccc2)c(=O)[nH]c1=O	LAV			4.066 µM
CCc1c(Cc2cc(C)cc(C)c2)n(COCC#Cc2cc3ccccc3c3ccccc23)c(=O)[nH]c1=O	IIIB	K103N + Y181C	MTT	>80 µM